Results of unrelated studies side by side (data: NIAID ChemDB).

Shared fields: tests in culture; species: Vaccinia virus

Rows are shuffled and stem from different studies. Blank or dashed fields: not listed here. ECn: concentration that inhibits the pathogen or its effect by n%. a–b is a range or a potency band.

SMILES	strain	cells	read-out	value
CC(=O)OCCOCN1C(=N)/C(=C(\C)O)C(N)=NS1(=O)=O		E6SM	EC50	>400 µg/mL
O=C(O)Cc1cn([C@H]2C[C@H](O)[C@@H](CO)O2)c(=O)[nH]c1=O		PRK	EC50	600 µM
CCC(Sc1ncnc2c1cnn2COCC(O)CO)C(N)=O		E6SM	EC50	>400 µg/mL
Nc1nc(N)c2nnn(CCOCP(=O)(O)O)c2n1		E6SM	EC50	400 µg/mL
COc1cc(Cc2cnc(-n3c(C)nc4ccc(Br)cc4c3=O)nc2N)cc(OC)c1OC		E6SM	EC50	>80 µg/mL
O=C(NCc1ccc(Cl)cc1)c1cn(N2CCOCC2)c2ccc(CN3CCOCC3)cc2c1=O		HFF	EC50	45.4 µM
Nc1ncnc2c1ncn2[C@@H]1C[C@@H](O)[C@@H](O)[C@H]1O		E6SM	EC50	0.1 µg/mL
Nc1ccn([C@@H]2O[C@H](CO)[C@@H](O)[C@@H]2O)c(=O)n1		VERO	EC50	0.34 µM
Nc1ncnc2c1ncn2COCCO		PRK	EC50	20 µg/mL
C[C@H]1O[C@@H](c2n[nH]c(C(N)=O)c2O)[C@H](O)[C@@H]1O		E6SM	EC50	5.5 µg/mL
Nc1ncnc2c1ncn2[C@@H]1C=C(CO)[C@@H](O)[C@@H]1O		PRK	EC50	20 µg/mL
CCCCCCCCC#Cc1cn(S(=O)(=O)c2ccc(C)cc2)c(=O)[nH]c1=O		HEL	EC50	>200 µM
Nc1nc2c(ncn2C[C@@H](CF)OCP(=O)(O)O)c(=O)[nH]1		E6SM	EC50	>600 µM
Oc1cccc(O)c1-c1c2nc(c(-c3c(O)cccc3O)c3ccc([nH]3)c(-c3c(O)cccc3O)c3nc(c(-c4c(O)cccc4O)c4ccc1[nH]4)C=C3)C=C2	IHD-J (EEV)	BSC-40	EC50	0.32 µg/mL
Cn1cc(CCCCOc2ccc(C3=NCCO3)cc2)cc1C=O		VERO	EC50	>280 µM
CCCCc1cc2cnc(=O)[nH]c2o1		HEL	EC50	>200 µM
CON=C1C[C@H](n2cc(C)c(=O)[nH]c2=O)O[C@@H]1CO		E6SM	EC50	>200 µg/mL
O=c1[nH]c(=O)n([C@H]2C[C@H](O)[C@@H](CO)O2)cc1-c1cc(Br)no1		E6SM	EC50	>400 µg/mL
Nc1ccn([C@@H]2C=C(CO)[C@@H](O)[C@H]2O)c(=O)n1		PRK	EC50	0.02 µg/mL
Nc1ncnc2c1ncn2[C@@H]1C=C(CO)[C@@H](O)[C@H]1O	VAC	VERO	EC50	>100 µg/mL
O=c1[nH]c(=O)n([C@H]2C[C@H](O)[C@@H](CO)O2)cc1/C=C/Br		PRK	EC99	22 µg/mL
Nc1ncnc2c1ncn2[C@H]1COC[C@@H](CO)O1		L1210	EC50	>30 µM
O=c1[nH]c(=O)n(COCCO)cc1[N+](=O)[O-]		PRK	EC50	>400 µg/mL
Cc1cccc(Cn2cnc(=N)c3[nH]cnc32)c1		BSC-1	EC50	>50 µg/mL
Nc1ncnc2c1ncn2C(CF)CCCO		ESM	EC50	>400 µg/mL
Cn1cc(CCCCOc2ccc(C(=O)O)cc2)cc1C=O		VERO	EC50	>380 µM
Nc1ncc2ncn(C[C@@H](CO)OCP(=O)(O)O)c2n1		E6SM	EC50	≥660 µM
O=c1c2ncn(COC(CO)CO)c2[nH]c2nccn12			EC50	400 µg/mL
CCCCCCCc1cc2cnc(=O)[nH]c2o1		HEL	EC50	>200 µM
Cc1cn([C@H]2C[C@H](N=[N+]=[N-])[C@@H](CO)O2)c(=O)[nH]c1=O		PRK	EC50	40–100 µg/mL
CCCCCCCC#Cc1cn(S(=O)(=O)c2ccc(C)cc2)c(=O)[nH]c1=O		HEL	EC50	>200 µM
Nc1ncnc2c1ncn2[C@@H]1O[C@H](CO)[C@@H](O)[C@@H]1O		PRK	EC50	0.3 µg/mL
CC(=O)OCCOCn1cnc2c(Cl)ncnc21		PRK	EC50	20 µg/mL
Nc1nc(N)c2ncn(C[C@@H](CO)OCP(=O)(O)O)c2n1		E6SM	EC50	23.6 µM
Nc1nc(=O)n([C@@H]2C[C@H](CO)[C@@H](O)C2)cc1/C=C/Br		Primary rabbit kidney cells	EC50	200 µg/mL
Cc1cn([C@H]2CO[C@H](CO)[C@@H](O)C2)c(=O)[nH]c1=O		E6SM	EC50	>20 µg/mL
Nc1nc(=O)n([C@H]2C[C@H](O)[C@@H](CO)O2)cc1/C=C\Cl		PRK	EC50	>200 µg/mL
Nc1ncnc2c1ncn2C[C@@H](CO)OCP(=O)(O)O		ESM	EC50	0.7 µg/mL
Cn1cc(NC(=O)c2cc(NC(=O)CN=C(N)N)cn2C)c(C(=O)NCCC(=N)N)c1	Noguchi	BSC-1	EC50	25–50 µg/mL
CCOC(=O)C1=CN(COCCOC(C)=O)S(=O)(=O)N=C1N		E6SM	EC50	>400 µg/mL
CCc1cn([C@H]2C[C@H](O)[C@@H](COP(=O)(O)O)O2)c(=O)[nH]c1=O		HEP-2	EC50	8.2 µg/mL
[N-]=[N+]=N[C@H]1[C@@H](O)[C@H](n2cnc3c(N)ncnc32)O[C@@H]1CO		PRK	EC50	4 µg/mL
Nc1ncnc2c1ncn2[C@@H]1O[C@H](CO)[C@@H](O)[C@H]1OP(=O)(O)OC[C@H]1O[C@@H](n2cnc3c(N)ncnc32)[C@H](OP(=O)(O)OC[C@H]2O[C@@H](n3cc(F)c(=O)[nH]c3=O)C[C@@H]2O)[C@@H]1O		PRK	EC50	0.2 µg/mL
Nc1ccn([C@@H]2C=C(CO)[C@@H](O)[C@H]2O)c(=O)n1	VAC	VERO	EC50	0.04 µg/mL
N=c1ncn(Cc2ccccc2)c2nc[nH]c12		BSC-1	EC50	>100 µg/mL
Nc1nc(-n2c(-c3ccccc3)nc3ccc(Br)cc3c2=O)nnc1-c1cccc(Cl)c1Cl		E6SM	EC50	>80 µg/mL
O=c1[nH]c(=O)n(COCCO)cc1I		PRK	EC50	>400 µg/mL
O=c1[nH]c(=O)n([C@H]2CC[C@@H](CO)O2)cc1/C=C/Br		PRK	EC50	7 µg/mL
CCCn1cnc(=N)c2[nH]cnc21		BSC-1	EC50	>100 µg/mL
Nc1nccc2c1ncn2[C@@H]1C[C@H](CO)[C@@H](O)[C@H]1O		PRK	EC50	0.7 µg/mL
O=c1c2ncn(COCCO)c2[nH]c2ncc(C(c3ccccc3)(c3ccccc3)c3ccccc3)n12			EC50	>16 µg/mL
NC(=O)CSc1ncnc2c1cnn2COCCO		E6SM	EC50	>400 µg/mL
Nc1ncnc2c1ncn2[C@@H]1O[C@H](CO)[C@@H](O)[C@@H]1O		PRK	EC50	0.4 µg/mL
CC1=CC(=O)N(c2ccccc2)S(=O)(=O)N1COCCO		E6SM	EC50	>400 µg/mL
CSc1ncnc2c1ncn2[C@@H]1C[C@H](CO)[C@@H](O)[C@H]1O	Lederle chorioallantoic	VERO	EC50	97 µg/mL
Cc1cn(COCCO)c(=O)[nH]c1=O		PRK	EC50	>400 µg/mL
Nc1nc(N)c2ncn(C[C@H](CF)OCP(=O)(O)O)c2n1		E6SM	EC50	>600 µM
COc1ncnc2c1ncn2[C@@H]1C[C@H](CO)[C@@H](O)[C@H]1O	Lederle chorioallantoic	VERO	EC50	21 µg/mL
Nc1ccn([C@H]2CO[C@H](CO)[C@@H](O)C2)c(=O)n1		E6SM	EC50	20 µg/mL
Nc1nc(Cl)c2ncn(COCCO)c2n1		PRK	EC50	70 µg/mL
CCc1nc(-n2c(-c3ccccc3)nc3ccc(Br)cc3c2=O)nc(N)c1-c1ccc(Cl)cc1		E6SM	EC50	1.92 µg/mL
O=c1[nH]c(=O)n([C@H]2C[C@H](O)[C@@H](CO)O2)cc1/C=C\Cl		PRK	EC50	7 µg/mL
Nc1nc(=O)n([C@@H]2O[C@H](COP(=O)([O-])[O-])[C@@H](O)[C@H]2O)cc1F		VERO	EC50	9 µM
Nc1ccn(C(CF)CCCO)c(=O)n1		ESM	EC50	>400 µg/mL
Cc1cn([C@H]2C[C@H](O)[C@]3(CO)C[C@H]23)c(=O)[nH]c1=O	Copenhagen	HFF	EC50	0.55 µg/mL
Nc1ncnc2c1ncn2C[C@@H](CO)OCP(=O)(O)O		E6SM	EC50	0.33 µM
C/C(O)=C1\C(=N)N(COCCO)S(=O)(=O)N=C1N		E6SM	EC50	>400 µg/mL
[N-]=[N+]=N[C@H]1[C@H](O)[C@H](n2cnc3c(N)ncnc32)O[C@@H]1CO		PRK	EC50	20 µg/mL
Nc1ncnc2c1ncn2C[C@@H](CF)OCP(=O)(O)O		E6SM	EC50	1312 µM
Nc1nc(N)c2ncn([C@H]3CO[C@H](CO)[C@@H](O)C3)c2n1		E6SM	EC50	>20 µg/mL
Nc1ncnc2c1ncn2[C@@H]1C=C(CO)[C@@H](O)C1		PRK	EC50	4 µg/mL
CCCCC#Cc1c[nH]c(=O)[nH]c1=O		HEL	EC50	>200 µM
CCC(Sc1ncnc2c1cnn2COCCO)C(N)=O		E6SM	EC50	>400 µg/mL
Nc1nc(=O)n([C@H]2C=C(F)[C@@H](CO)O2)cc1F		VERO	EC50	5 µM
COc1ccc(-c2[nH]c3nc4c(ncn4COCCO)c(=O)n3c2-c2ccc(C(c3ccccc3)c3ccccc3)cc2)cc1			EC50	>16 µg/mL
Nc1ncnc2c1ncn2C[C@H](O)CO		PRK	EC50	20 µg/mL
O=c1[nH]c(=O)n([C@H]2C[C@H](O)[C@@H](CO)O2)cc1/C=C/C(F)(F)F		PRK	EC99	>100 µg/mL
CC(=O)OCCOCN1C(N)=CC(N)=NS1(=O)=O		E6SM	EC50	>400 µg/mL
COc1ccc(-c2cn3c(=O)c4ncn(COC(CO)CO)c4nc3[nH]2)cc1			EC50	>80 µg/mL
Cn1cc(NC(=O)c2cc(NC(=O)c3cc(NC(=O)c4cc(NC(=O)c5cc(NC=O)cn5C)cn4C)cn3C)cn2C)cc1C(=O)NCCC(=N)N	Noguchi	BSC-1	EC50	<10 µg/mL
Nc1nc(N)c2c(ncn2[C@@H]2O[C@H](CO)[C@@H](O)[C@H]2O)n1	Lederle chorioallantoic	VERO	EC50	2.3 µg/mL

A second listing of 8 rows from above:

SMILES,strain,cells,read-out,value
Nc1ccn(C(CF)CCCO)c(=O)n1,,ESM,EC50,>400 µg/mL
Nc1ncnc2c1ncn2COCCO,,PRK,EC50,20 µg/mL
Cc1cccc(Cn2cnc(=N)c3[nH]cnc32)c1,,BSC-1,EC50,>50 µg/mL
Nc1ccn([C@@H]2C=C(CO)[C@@H](O)[C@H]2O)c(=O)n1,,PRK,EC50,0.02 µg/mL
Nc1ccn([C@@H]2C=C(CO)[C@@H](O)[C@H]2O)c(=O)n1,VAC,VERO,EC50,0.04 µg/mL
COc1ccc(-c2[nH]c3nc4c(ncn4COCCO)c(=O)n3c2-c2ccc(C(c3ccccc3)c3ccccc3)cc2)cc1,,,EC50,>16 µg/mL
Nc1nc(=O)n([C@@H]2C[C@H](CO)[C@@H](O)C2)cc1/C=C/Br,,Primary rabbit kidney cells,EC50,200 µg/mL
CC(=O)OCCOCn1cnc2c(Cl)ncnc21,,PRK,EC50,20 µg/mL